{"source": "patent EP1016405A2", "about": "“Arylating medicaments” (Radopath Pharmaceuticals International Limited, priority 1993, dated 1994)", "key": {"uninfected cells": {"system": "uninfected cells", "assay": "Toxicity Assay, 14C protein hydrolysate uptake, 72 hours", "settings": "read-out: CC50 (Toxicity), section Against HIV-1RF, single assays, unit inferred"}, "HIV-1RF": {"system": "HIV-1RF", "assay": "Acute Infection Assay, HIV core antigen ELISA in C8166 cells", "format": "cell-based, human immunodeficiency virus", "settings": "Against HIV-1RF; for IC50: read-out: IC50 (Antiviral)"}}, "note": "Several values for one entry are separate records, joined by “and”; a condition that tells them apart may be missing. Equal entries are not always repeated. Where two headings read alike, the source gives them in different places.", "data": [{"compound": "picrylsulfonic acid (sodium salt)", "values": [{"measurement": "CC50", "setting": "uninfected cells; Table 11.2", "value": "> 200", "unit": "µM"}, {"measurement": "IC50", "setting": "HIV-1RF; Table 11.2, single assays, no unit printed (tested 200µM to 0.2µM)", "value": "> 200", "unit": "µM"}]}, {"compound": "O=[N+]([O-])c1ccc(S(=O)(=O)O)c([N+](=O)[O-])c1", "note": "[Compound S8, 2,4-dinitrobenzenesulfonic acid]", "values": [{"measurement": "SI (Selectivity Index)", "setting": "HIV-1RF; Table 11.4, Average", "value": 2.4}, {"measurement": "SI (Selectivity Index)", "setting": "HIV-1RF; Table 11.4, single assays", "value": "2.5 and 2"}]}, {"compound": "4-nitrotoilnenesulfonic acid", "values": [{"measurement": "CC50", "setting": "uninfected cells; Table 11.4", "value": "> 200", "unit": "µM"}, {"measurement": "IC50", "setting": "HIV-1RF; Table 11.4, single assays, unit inferred", "value": "> 200", "unit": "µM"}]}]}
